Read-outs that look alike come from different tables or passages of the source.
System: female baboons

Tetanus Toxoid: carrier protein given alone to the control group
Cycle length (mean) (Post-Immunization menstrual cycle 1): 33.0 | Cycle length (mean) (Post-Immunization menstrual cycle 2): 32.0 | Cycle length (mean) (Post-Immunization menstrual cycle 3): 32.0 | Cycle length (mean) (Post-Immunization menstrual cycle 4): 29.0 | Cycle length (mean) (Pre-Immunization menstrual cycle −1): 32.9 | Cycle length (mean) (Pre-Immunization menstrual cycle −2): 32.2 | Cycle length (mean) (Pre-Immunization menstrual cycle −3): 33.1
